B1: O75400 1xPhospho [S938(100)] (protein, UniProt O75400 1-957, looked up)
Pre-mRNA-processing factor 40 …: MRPGTGAERGGLMVSEMESHPPSQGPGDGERRLSGSSLCSGSWVSADGFLRRRPSMGHPGMHYAPMGMHPMGQRANMPPVPHGMMPQMMPPMGGPPMGQMPGMMSSVMPGMMMSHMSQASMQPALPPGVNSMDVAAGTASGAKSMWTEHKSPDGRTYYYNTETKQSTWEKPDDLKTPAEQLLSKCPWKEYKSDSGKPYYYNSQTKESRWAKPKELEDLEGYQNTIVAGSLITKSNLHAMIKAEESSKQEECTTTSTAPVPTTEIPTTMSTMAAAEAAAAVVAAAAAAAAAAAAANANASTSASNTVSGTVPVVPEPEVTSIVATVVDNENTVTISTEEQAQLTSTPAIQDQSVEVSSNTGEETSKQETVADFTPKKEEEESQPAKKTYTWNTKEEAKQAFKELLKEKRVPSNASWEQAMKMIINDPRYSALAKLSEKKQAFNAYKVQTEKEEKEEARSKYKEAKESFQRFLENHEKMTSTTRYKKAEQMFGEMEVWNAISERDRLEIYEDVLFFLSKKEKEQAKQLRKRNWEALKNILDNMANVTYSTTWSEAQQYLMDNPTFAEDEELQNMDKEDALICFEEHIRALEKEEEEEKQKSLLRERRRQRKNRESFQIFLDELHEHGQLHSMSSWMELYPTISSDIRFTNMLGQPGSTALDLFKFYVEDLKARYHDEKKIIKDILKDKGFVVEVNTTFEDFVAIISSTKRSTTLDAGNIKLAFNSLLEKAEAREREREKEEARKMKRKESAFKSMLKQAAPPIELDAVWEDIRERFVKEPAFEDITLESERKRIFKDFMHVLEHECQHHHSKNKKHSKKSKKHHRKRSRSRSGSDSDDDDSHSKKKRQRSESRSASEHSSSAESERSYKKSKKHKKKSKKRRHKSDSPESDAEREKDKKEKDRESEKDRTRQRSESKHKSPKKKTGKDSGNWDTSGSELSEGELEKRRRTLLEQLDDDQ
modifications: phosphorylated S938
B2: O75400 2xPhospho [S938(100); T/S] (protein, UniProt O75400 1-957, looked up)
Pre-mRNA-processing factor 40 …: MRPGTGAERGGLMVSEMESHPPSQGPGDGERRLSGSSLCSGSWVSADGFLRRRPSMGHPGMHYAPMGMHPMGQRANMPPVPHGMMPQMMPPMGGPPMGQMPGMMSSVMPGMMMSHMSQASMQPALPPGVNSMDVAAGTASGAKSMWTEHKSPDGRTYYYNTETKQSTWEKPDDLKTPAEQLLSKCPWKEYKSDSGKPYYYNSQTKESRWAKPKELEDLEGYQNTIVAGSLITKSNLHAMIKAEESSKQEECTTTSTAPVPTTEIPTTMSTMAAAEAAAAVVAAAAAAAAAAAAANANASTSASNTVSGTVPVVPEPEVTSIVATVVDNENTVTISTEEQAQLTSTPAIQDQSVEVSSNTGEETSKQETVADFTPKKEEEESQPAKKTYTWNTKEEAKQAFKELLKEKRVPSNASWEQAMKMIINDPRYSALAKLSEKKQAFNAYKVQTEKEEKEEARSKYKEAKESFQRFLENHEKMTSTTRYKKAEQMFGEMEVWNAISERDRLEIYEDVLFFLSKKEKEQAKQLRKRNWEALKNILDNMANVTYSTTWSEAQQYLMDNPTFAEDEELQNMDKEDALICFEEHIRALEKEEEEEKQKSLLRERRRQRKNRESFQIFLDELHEHGQLHSMSSWMELYPTISSDIRFTNMLGQPGSTALDLFKFYVEDLKARYHDEKKIIKDILKDKGFVVEVNTTFEDFVAIISSTKRSTTLDAGNIKLAFNSLLEKAEAREREREKEEARKMKRKESAFKSMLKQAAPPIELDAVWEDIRERFVKEPAFEDITLESERKRIFKDFMHVLEHECQHHHSKNKKHSKKSKKHHRKRSRSRSGSDSDDDDSHSKKKRQRSESRSASEHSSSAESERSYKKSKKHKKKSKKRRHKSDSPESDAEREKDKKEKDRESEKDRTRQRSESKHKSPKKKTGKDSGNWDTSGSELSEGELEKRRRTLLEQLDDDQ
modifications: diphosphorylated incl. S938
B3: O75400 1xPhospho [T373(100)] (protein, UniProt O75400 1-957, looked up)
Pre-mRNA-processing factor 40 …: MRPGTGAERGGLMVSEMESHPPSQGPGDGERRLSGSSLCSGSWVSADGFLRRRPSMGHPGMHYAPMGMHPMGQRANMPPVPHGMMPQMMPPMGGPPMGQMPGMMSSVMPGMMMSHMSQASMQPALPPGVNSMDVAAGTASGAKSMWTEHKSPDGRTYYYNTETKQSTWEKPDDLKTPAEQLLSKCPWKEYKSDSGKPYYYNSQTKESRWAKPKELEDLEGYQNTIVAGSLITKSNLHAMIKAEESSKQEECTTTSTAPVPTTEIPTTMSTMAAAEAAAAVVAAAAAAAAAAAAANANASTSASNTVSGTVPVVPEPEVTSIVATVVDNENTVTISTEEQAQLTSTPAIQDQSVEVSSNTGEETSKQETVADFTPKKEEEESQPAKKTYTWNTKEEAKQAFKELLKEKRVPSNASWEQAMKMIINDPRYSALAKLSEKKQAFNAYKVQTEKEEKEEARSKYKEAKESFQRFLENHEKMTSTTRYKKAEQMFGEMEVWNAISERDRLEIYEDVLFFLSKKEKEQAKQLRKRNWEALKNILDNMANVTYSTTWSEAQQYLMDNPTFAEDEELQNMDKEDALICFEEHIRALEKEEEEEKQKSLLRERRRQRKNRESFQIFLDELHEHGQLHSMSSWMELYPTISSDIRFTNMLGQPGSTALDLFKFYVEDLKARYHDEKKIIKDILKDKGFVVEVNTTFEDFVAIISSTKRSTTLDAGNIKLAFNSLLEKAEAREREREKEEARKMKRKESAFKSMLKQAAPPIELDAVWEDIRERFVKEPAFEDITLESERKRIFKDFMHVLEHECQHHHSKNKKHSKKSKKHHRKRSRSRSGSDSDDDDSHSKKKRQRSESRSASEHSSSAESERSYKKSKKHKKKSKKRRHKSDSPESDAEREKDKKEKDRESEKDRTRQRSESKHKSPKKKTGKDSGNWDTSGSELSEGELEKRRRTLLEQLDDDQ
modifications: phosphorylated T373
B4: O43741 1xPhospho [S108(100)] (protein, UniProt O43741 1-272, looked up)
5'-AMP-activated protein …: MGNTTSDRVSGERHGAKAARSEGAGGHAPGKEHKIMVGSTDDPSVFSLPDSKLPGDKEFVSWQQDLEDSVKPTQQARPTVIRWSEGGKEVFISGSFNNWSTKIPLIKSHNDFVAILDLPEGEHQYKFFVDGQWVHDPSEPVVTSQLGTINNLIHVKKSDFEVFDALKLDSMESSETSCRDLSSSPPGPYGQEMYAFRSEERFKSPPILPPHLLQVILNKDTNISCDPALLPEPNHVMLNHLYALSIKDSVMVLSATHRYKKKYVTTLLYKPI
modifications: phosphorylated S108
B5: Q14155 1xPhospho [S694(100)] (protein, UniProt Q14155 1-803, looked up)
Rho guanine nucleotide …: MNSAEQTVTWLITLGVLESPKKTISDPEGFLQASLKDGVVLCRLLERLLPGTIEKVYPEPRSESECLSNIREFLRGCGASLRLELLFPPSQPPQHLVTTILLSASTFDANDLYQGQNFNKVLSSLVTLNKVTADIGLGSDSVCARPSSHRIKSFDSLGSQSLHTRTSKLFQGQYRSLDMTDNSNNQLVVRAKFNFQQTNEDELSFSKGDVIHVTRVEEGGWWEGTLNGRTGWFPSNYVREVKASEKPVSPKSGTLKSPPKGFDTTAINKSYYNVVLQNILETENEYSKELQTVLSTYLRPLQTSEKLSSANISYLMGNLEEICSFQQMLVQSLEECTKLPEAQQRVGGCFLNLMPQMKTLYLTYCANHPSAVNVLTEHSEELGEFMETKGASSPGILVLTTGLSKPFMRLDKYPTLLKELERHMEDYHTDRQDIQKSMAAFKNLSAQCQEVRKRKELELQILTEAIRNWEGDDIKTLGNVTYMSQVLIQCAGSEEKNERYLLLFPNVLLMLSASPRMSGFIYQGKLPTTGMTITKLEDSENHRNAFEISGSMIERILVSCNNQQDLQEWVEHLQKQTKVTSVGNPTIKPHSVPSHTLPSHPVTPSSKHADSKPAPLTPAYHTLPHPSHHGTPHTTINWGPLEPPKTPKPWSLSCLRPAPPLRPSAALCYKEDLSKSPKTMKKLLPKRKPERKPSDEEFASRKSTAALEEDAQILKVIEAYCTSAKTRQTLNSTWQGTDLMHNHVLADDDQPSLDSLGRRSSLSRLEPSDLSEDSDYDSIWTAHSYRMGSTSRKSCCSYISHQN
modifications: phosphorylated S694
B6: Q9NVU0 1xPhospho [S162(100)] (protein, UniProt Q9NVU0 1-708, looked up)
DNA-directed RNA polymerase …: MANEEDDPVVQEIDVYLAKSLAEKLYLFQYPVRPASMTYDDIPHLSAKIKPKQQKVELEMAIDTLNPNYCRSKGEQIALNVDGACADETSTYSSKLMDKQTFCSSQTTSNTSRYAAALYRQGELHLTPLHGILQLRPSFSYLDKADAKHREREAANEAGDSSQDEAEDDVKQITVRFSRPESEQARQRRVQSYEFLQKKHAEEPWVHLHYYGLRDSRSEHERQYLLCPGSSGVENTELVKSPSEYLMMLMPPSQEEEKDKPVAPSNVLSMAQLRTLPLADQIKILMKNVKVMPFANLMSLLGPSIDSVAVLRGIQKVAMLVQGNWVVKSDILYPKDSSSPHSGVPAEVLCRGRDFVMWKFTQSRWVVRKEVATVTKLCAEDVKDFLEHMAVVRINKGWEFILPYDGEFIKKHPDVVQRQHMLWTGIQAKLEKVYNLVKETMPKKPDAQSGPAGLVCGDQRIQVAKTKAQQNHALLERELQRRKEQLRVPAVPPGVRIKEEPVSEEGEEDEEQEAEEEPMDTSPSGLHSKLANGLPLGRAAGTDSFNGHPPQGCASTPVARELKAFVEATFQRQFVLTLSELKRLFNLHLASLPPGHTLFSGISDRMLQDTVLAAGCKQILVPFPPQTAASPDEQKVFALWESGDMSDQHRQVLLEIFSKNYRVRRNMIQSRLTQECGEDLSKQEVDKVLKDCCVSYGGMWYLKGTVQS
modifications: phosphorylated S162
B7: Q9NVU0 1xPhospho [S503(100)] (protein, UniProt Q9NVU0 1-708, looked up)
DNA-directed RNA polymerase …: MANEEDDPVVQEIDVYLAKSLAEKLYLFQYPVRPASMTYDDIPHLSAKIKPKQQKVELEMAIDTLNPNYCRSKGEQIALNVDGACADETSTYSSKLMDKQTFCSSQTTSNTSRYAAALYRQGELHLTPLHGILQLRPSFSYLDKADAKHREREAANEAGDSSQDEAEDDVKQITVRFSRPESEQARQRRVQSYEFLQKKHAEEPWVHLHYYGLRDSRSEHERQYLLCPGSSGVENTELVKSPSEYLMMLMPPSQEEEKDKPVAPSNVLSMAQLRTLPLADQIKILMKNVKVMPFANLMSLLGPSIDSVAVLRGIQKVAMLVQGNWVVKSDILYPKDSSSPHSGVPAEVLCRGRDFVMWKFTQSRWVVRKEVATVTKLCAEDVKDFLEHMAVVRINKGWEFILPYDGEFIKKHPDVVQRQHMLWTGIQAKLEKVYNLVKETMPKKPDAQSGPAGLVCGDQRIQVAKTKAQQNHALLERELQRRKEQLRVPAVPPGVRIKEEPVSEEGEEDEEQEAEEEPMDTSPSGLHSKLANGLPLGRAAGTDSFNGHPPQGCASTPVARELKAFVEATFQRQFVLTLSELKRLFNLHLASLPPGHTLFSGISDRMLQDTVLAAGCKQILVPFPPQTAASPDEQKVFALWESGDMSDQHRQVLLEIFSKNYRVRRNMIQSRLTQECGEDLSKQEVDKVLKDCCVSYGGMWYLKGTVQS
modifications: phospho S503

Test system: HepG2-NTCP cells
Assay: TMT-based phosphoproteome profiling of HBV-infected vs mock HepG2-NTCP (HBV/mock ratio)
Set-up: species or system human
Conditions: phosphosite abundance ratio of host protein, HBV-infected vs mock HepG2-NTCP, 7dpi, sheet Up-regulated

Compared with B1, B2 is lower in HBV/mock: 1.858 for the first, 1.485 for the second.

First: B3
Second: B4
The HBV/mock of the first is lower: 1.334 for the first, 1.37 for the second.

Compared with B5, B6 is lower in HBV/mock: 1.757 for the first, 1.324 for the second.

Molecule B7 has an HBV/mock of 1.444.

— paper PMC9104152, “Phosphoproteomics Unravel HBV Triggered Rewiring of Host Phosphosignaling Events” (International Journal of Molecular Sciences, 2022)
